Earlier results as cited in PMC7504092, “Synthesis and Antiplasmodial Evaluation of 4-Carboxamido- and 4-Alkoxy-2-Trichloromethyl Quinazolines” (Molecules, 2020).

Tested on: K1 P. falciparum strain
Conditions: CC50/EC50, previously described compounds; ref 9 (A), 10 (B), 11 (C); cited from earlier work

Structure (SMILES)	Selectivity Index (SI)
O=[N+]([O-])c1ccc(COc2nc(C(Cl)(Cl)Cl)nc3ccccc23)cc1 [C]	11
Fc1ccc(-c2nc(C(Cl)(Cl)Cl)nc3ccccc23)cc1 [A, 4-(4′-fluorophenyl)-2-trichloromethylquinazoline]	>50
